Pooled drug test results. Numbers come from NIAID ChemDB, via PubChem.

Shared fields: whole-cell or culture tests; agent: Candida albicans; read-out: zone

Conditions beyond the fields shown may differ between rows.

SMILES	method	strain or isolate	tested at	result
C[C@@H]1[C@@H](COCC(=O)O)C[C@@H](O[C@H]2[C@H](O)[C@@H](N(Cc3ccccc3Cl)CC(O)C[N+](C)(C)C)[C@H](O[C@H]3[C@H](O)[C@@H](N(Cc4ccccc4Cl)CC(O)C[N+](C)(C)C)[C@H](C)O[C@@H]3COCC(=O)O)O[C@@H]2COCC(=O)O)[C@H](N(Cc2ccccc2Cl)CC(O)C[N+](C)(C)C)[C@H]1O	agar diffusion	RCMB 05031	1 mg/mL	17.4 mm
N#Cc1c(-c2ccccc2)nc2ncc(/C=C3\SC(=O)NC3=O)c(-c3ccccc3O)n2c1=O	agar diffusion / agar	fungal strain	100 µg/mL	12 mm
Cn1cc(CCCNC(=O)CCc2c[nH]c3ccc(Cl)cc23)c2cc(Cl)ccc21	-	-	25 µg/mL	<10 mm
N#Cc1cc(C#N)c2[nH]c(=O)c3c(-c4ccc(Cl)cc4)csc3[n+]2c1N	agar diffusion / agar	-	1000 µg/mL	0 mm
CC(=NNC(=O)c1snnc1C(F)(F)F)c1ccc([N+](=O)[O-])cc1	agar diffusion / agar	MTCC 227	100 µg/mL	0 mm
CC1(C)CC(=O)c2cc(C3=CC(c4ccc(Br)cc4)=CC3c3nnc4c(n3)Nc3ccccc3C4)[nH]c2C1	-	ATCC 2091	1000 µg/mL	21 mm
C[C@@H]1[C@H](O)[C@@H](C)/C=C/C=C/C=C/C=C/C=C/C=C/C=C/[C@H](O[C@@H]2O[C@H](C)[C@@H](O)[C@H](N)[C@@H]2O)C[C@@H]2O[C@](O)(C[C@@H](O)C[C@@H](O)[C@H](O)CC[C@@H](O)C[C@@H](O)CC(=O)O[C@H]1C)C[C@H](O)[C@H]2C(=O)O	agar diffusion	-	10 µg	18.71 mm
CC1(C)CC(=O)c2cc(C3CC(c4ccc(Br)cc4)=NO3)[nH]c2C1	-	ATCC 2091	1000 µg/mL	24 mm
O=C(NN=Cc1ccc([N+](=O)[O-])cc1)c1snnc1C(F)(F)F	agar diffusion / agar	MTCC 227	150 µg/mL	0 mm
CC1/C(=N\O)C(=O)NCCCOc2c(O)cc(c(Br)c2Br)C/C2=N\O[C@@H]3[C@H](Br)[C@@]4(C=C[C@@]3(O)C/C(=N\O)C(=O)NC[C@@H](O)[C@@H](O)[C@H](O)CNC2=O)Oc2cc1cc(Br)c2O4	agar diffusion	-	10 µg/disc	6.5 mm
Cc1ccc(-c2cc(/C=N/NC(=O)C34CC5CC(CC(C5)C3)C4)no2)cc1	agar diffusion / agar	IFO 0583	200 µg	≤10 mm
Cc1cccc(Nc2ccc(N)c3nc[nH]c(=O)c23)c1	agar diffusion	ATCC 10231	1000 µg/mL	0 mm
N#Cc1c(-c2ccccc2)csc1NC(=O)C1C=CC(c2cccs2)=NC1=O	agar diffusion / agar	-	1000 µg/mL	0 mm
Cc1ccc(Nc2ccc(N)c3nc[nH]c(=O)c23)cc1	agar diffusion	ATCC 10231	1000 µg/mL	0 mm
Cc1ccc(-c2nnc(CN3CCC(n4nc5ccccc5n4)CC3)o2)cc1Br	-	-	600 µg/mL	5.51 mm
O=C1CS/C(=N/N=C/c2csc(-c3ccccc3)n2)N1	agar diffusion	ATCC 10231	200 µg	42 mm
CC1(C)CC(=O)c2cc(C3CC(c4ccc(Br)cc4)=NN3C(N)=S)[nH]c2C1	-	ATCC 2091	1000 µg/mL	23 mm
O=C(NN=Cc1ccc(Br)cc1)c1snnc1C(F)(F)F	agar diffusion / agar	MTCC 227	150 µg/mL	0 mm
O=C(CCc1c[nH]c2ccc(Cl)cc12)NCCCc1c[nH]c2ccc(OC(F)(F)F)cc12	-	-	25 µg/mL	<10 mm
CC1(C)CC(=O)c2cc(/C=C/C(=O)c3ccc(Br)cc3)[nH]c2C1	-	ATCC 2091	1000 µg/mL	21 mm
CCCCc1nc(/C=N/NC(=O)C23CC4CC(CC(C4)C2)C3)c(Cl)[nH]1	agar diffusion / agar	IFO 0583	200 µg	16 mm
COc1ccccc1/C=N/N=C1/NC(=O)/C(=C\c2coc3ccc(Cl)cc3c2=O)S1	agar diffusion	ATCC 10231	200 µg	0 mm
CCC(C)n1ncn(-c2ccc(N3CCN(c4ccc(OC[C@H]5CO[C@](Cn6cncn6)(c6ccc(Cl)cc6Cl)O5)cc4)CC3)cc2)c1=O	agar diffusion	ATCC 90028	100 µg	17 mm
O=C1NC(=O)/C(=C/c2cnc(=S)[nH]c2-c2ccccc2O)S1	agar diffusion / agar	fungal strain	100 µg/mL	11 mm
C[C@@H]1[C@@H](COCC(=O)O)C[C@@H](O[C@H]2[C@H](O)[C@@H](N(Cc3ccc(Cl)cc3)CC(O)C[N+](C)(C)C)[C@H](O[C@H]3[C@H](O)[C@@H](N(Cc4ccc(Cl)cc4)CC(O)C[N+](C)(C)C)[C@H](C)O[C@@H]3COCC(=O)O)O[C@@H]2COCC(=O)O)[C@H](N(Cc2ccc(Cl)cc2)CC(O)C[N+](C)(C)C)[C@H]1O	agar diffusion	RCMB 05031	1 mg/mL	16.1 mm
O=C1N[C@@H](Cc2c[nH]c3ccccc23)C(=O)N2CCC[C@@H]12	agar diffusion / agar	MTCC 277	8 µg/mL	17 mm
C#Cc1c(-c2ccc(Cl)cc2)c(C#N)c2nc(=O)c3c(-c4ccccc4)csc3n2c1N	agar diffusion / agar	-	1000 µg/mL	0 mm
C[C@H]1[C@H](O)[C@@H](C)/C=C/C=C/C=C/C=C/C=C/C=C/C=C/[C@H](O[C@@H]2O[C@H](C)[C@@H](O)[C@H](N)[C@@H]2O)C[C@@H]2O[C@](O)(C[C@@H](O)C[C@@H](O)CC[C@H](O)[C@@H](O)C[C@@H](O)CC(=O)O[C@H]1C)C[C@H](O)[C@H]2C(=O)O	agar diffusion	RCMB 05031	1 mg/mL	25.4 mm
O=C(NN=Cc1ccc(O)cc1)c1snnc1C(F)(F)F	agar diffusion / agar	MTCC 227	100 µg/mL	0 mm
N#Cc1c(F)c(Cl)c(Nc2ccc(Nc3ccccc3)c3c(=O)[nH]cnc23)c(C#N)c1F	agar diffusion	ATCC 10231	1000 µg/mL	0 mm
C#Cc1c(-c2ccc(C)cc2)c(C#N)c2nc(=O)c3c(-c4ccccc4)csc3n2c1N	agar diffusion / agar	-	1000 µg/mL	0 mm
C=CC(C)(C)c1cc(C2CC(=O)c3c(cc(O)c(CC=C(C)C)c3O)O2)c(O)cc1O	agar diffusion / agar	hemoculture isolate 1999	2 mg/mL	14 mm
CN(C)c1ccc(C=NNC(=O)c2snnc2C(F)(F)F)cc1	agar diffusion / agar	MTCC 227	150 µg/mL	0 mm
COc1ccccc1/C=C1/S/C(=N\N=C\c2c(Cl)cccc2Cl)NC1=O	agar diffusion	ATCC 10231	200 µg	24 mm
Cc1ccc(C(C)C)c(O)c1	agar diffusion	MTCC	100 µg/mL	8 mm
CCCC[n+]1ccccc1CN1C(=O)c2cccc3c(N=Nc4ccc(N(CC)CCO)cc4)ccc(c23)C1=O	agar diffusion / agar	ATCC 10231	128 µg/disc	30 mm
O=C1N/C(=N/N=C/c2c(Cl)cccc2Cl)S/C1=C/c1coc2c(Br)cc(Br)cc2c1=O	agar diffusion	ATCC 10231	200 µg	0 mm
COc1cc2c(cc1-c1cc(-c3ccc(C#N)cc3)nc(N)n1)CCC(C)(C)O2	agar diffusion	-	100 µg/mL	15 mm
C[C@H]1[C@H](O)[C@@H](C)/C=C/C=C/C=C/C=C/C=C/C=C/C=C/[C@H](O[C@@H]2O[C@H](C)[C@@H](O)[C@H](N)[C@@H]2O)C[C@@H]2O[C@](O)(C[C@@H](O)C[C@@H](O)CC[C@H](O)[C@@H](O)C[C@@H](O)CC(=O)O[C@H]1C)C[C@H](O)[C@H]2C(=O)O	agar diffusion	Ca1	100 µg/disc	25 mm
Cc1c(CCCNC(=O)CCc2cn(C)c3ccc(Cl)cc23)c2cc(OC(F)(F)F)ccc2n1C	-	-	25 µg/mL	<10 mm
C#Cc1c(-c2ccc(OC)cc2)c(C#N)c2nc(=O)c3c(-c4ccccc4)csc3n2c1N	agar diffusion / agar	-	1000 µg/mL	0 mm
Cc1c(Br)cccc1-c1nnc(CN2CCC(n3nc4ccccc4n3)CC2)o1	-	-	600 µg/mL	4.18 mm
C/C=C/C1=CC2=CC(=O)[C@](C)(OC(=O)c3c(OC)cc(O)c(O)c3C)C(=O)C2=CO1	agar diffusion	ATCC 64548	25 µg/disc	0 mm
[Cl][Cu+].[O-]c1cc2ccccc2cc1/C=N/NC(=S)N/N=C/c1cc2ccccc2cc1O	agar diffusion / agar	-	2 mg/mL	0 mm
CC(=O)N1CCN(c2ccc(OC[C@H]3CO[C@](Cn4ccnc4)(c4ccc(Cl)cc4Cl)O3)cc2)CC1	agar diffusion	MTCC 227	5 mg/mL	28 mm
COc1cc2c(cc1-c1cc(-c3ccccc3)nc(N)n1)CCC(C)(C)O2	agar diffusion	-	100 µg/mL	11 mm
COc1ccccc1/C=N/N=C1/NC(=O)/C(=C\c2c(Cl)cccc2Cl)S1	agar diffusion	ATCC 10231	200 µg	9 mm
CC1=NN(c2nnc3c(n2)Nc2ccccc2C3)C(=O)C1	-	ATCC 2091	1000 µg/mL	23 mm
CC(=O)n1ncc(/C=C2\SC(=O)NC2=O)c1-c1ccccc1O	agar diffusion / agar	fungal strain	100 µg/mL	8 mm
COc1cc2c(cc1-c1cc(-c3ccc(F)cc3)nc(N)n1)CCC(C)(C)O2	agar diffusion	-	100 µg/mL	18 mm
O=C(NN=Cc1ccc(F)cc1)c1snnc1C(F)(F)F	agar diffusion / agar	MTCC 227	100 µg/mL	0 mm
COc1ccc(-c2cc(/C=N/NC(=O)C34CC5CC(CC(C5)C3)C4)no2)cc1	agar diffusion / agar	IFO 0583	200 µg	≤10 mm
c1ccc(-c2nnc(CN3CCC(n4nc5ccccc5n4)CC3)o2)cc1	-	-	900 µg/mL	13.25 mm
CC(=O)N1CCN(c2ccc(OC[C@H]3CO[C@](Cn4ccnc4)(c4ccc(Cl)cc4Cl)O3)cc2)CC1	agar diffusion / agar	C4	20 mg/mL	20 mm
COc1ccccc1/C=N/N=C1\NC(=O)CS1	agar diffusion	ATCC 10231	200 µg	8 mm
Fc1cccc(-c2nnc(CN3CCC(n4nc5ccccc5n4)CC3)o2)c1F	-	-	1200 µg/mL	17.25 mm
COc1cc2c(cc1-c1cc(-c3ccc([N+](=O)[O-])cc3)nc(N)n1)CCC(C)(C)O2	agar diffusion	-	100 µg/mL	21 mm
Clc1ccc(COC(Cn2ccnc2)c2ccc(Cl)cc2Cl)c(Cl)c1	agar diffusion	-	30 µg/mL	24 mm
CCCCCCCCN(CC(O)C[N+](C)(C)C)[C@@H]1[C@@H](O)[C@H](O[C@@H]2O[C@H](COCC(=O)O)[C@@H](O[C@@H]3C[C@H](COCC(=O)O)[C@@H](C)[C@H](O)[C@H]3N(CCCCCCCC)CC(O)C[N+](C)(C)C)[C@H](O)[C@H]2N(CCCCCCCC)CC(O)C[N+](C)(C)C)[C@@H](COCC(=O)O)O[C@H]1C	agar diffusion	RCMB 05031	1 mg/mL	13.9 mm
O=C1NC(=O)/C(=C/C2=C(c3ccccc3O)Sc3nnc(-c4ccccc4)n3N=C2)S1	agar diffusion / agar	fungal strain	100 µg/mL	9 mm
CC1(C)CC(=O)c2cc(C3CC(c4ccc(Cl)cc4)=NN3C(N)=S)[nH]c2C1	-	ATCC 2091	1000 µg/mL	25 mm
N#Cc1cc(/C=C2\SC(=O)NC2=O)c(-c2ccccc2O)[nH]c1=O	agar diffusion / agar	fungal strain	100 µg/mL	14 mm
CC1(C)CC(=O)c2cc(C3=CC(c4ccc(Cl)cc4)=CC3c3nnc4c(n3)Nc3ccccc3N4)[nH]c2C1	-	ATCC 2091	1000 µg/mL	24 mm
Cc1ccc(Nc2ccc(N)c3nc[nH]c(=O)c23)cc1C	agar diffusion	ATCC 10231	1000 µg/mL	0 mm
COc1cccc(CN(CC(O)C[N+](C)(C)C)[C@@H]2[C@@H](O)[C@H](O[C@@H]3O[C@H](COCC(=O)O)[C@@H](O[C@@H]4C[C@H](COCC(=O)O)[C@@H](C)[C@H](O)[C@H]4N(Cc4cccc(OC)c4)CC(O)C[N+](C)(C)C)[C@H](O)[C@H]3N(Cc3cccc(OC)c3)CC(O)C[N+](C)(C)C)[C@@H](COCC(=O)O)O[C@H]2C)c1	agar diffusion	RCMB 05031	1 mg/mL	12.3 mm
CN(C)/C=C(\C#N)C(=O)Nc1scc(-c2ccccc2)c1C#N	agar diffusion / agar	-	1000 µg/mL	4 mm

A second listing of 10 rows from above:

SMILES | method | strain or isolate | tested at | result
CC1(C)CC(=O)c2cc(C3CC(c4ccc(Br)cc4)=NN3C(N)=S)[nH]c2C1 | - | ATCC 2091 | 1000 µg/mL | 23 mm
CC1(C)CC(=O)c2cc(/C=C/C(=O)c3ccc(Br)cc3)[nH]c2C1 | - | ATCC 2091 | 1000 µg/mL | 21 mm
Fc1cccc(-c2nnc(CN3CCC(n4nc5ccccc5n4)CC3)o2)c1F | - | - | 1200 µg/mL | 17.25 mm
CN(C)/C=C(\C#N)C(=O)Nc1scc(-c2ccccc2)c1C#N | agar diffusion / agar | - | 1000 µg/mL | 4 mm
Cc1ccc(-c2nnc(CN3CCC(n4nc5ccccc5n4)CC3)o2)cc1Br | - | - | 600 µg/mL | 5.51 mm
N#Cc1c(F)c(Cl)c(Nc2ccc(Nc3ccccc3)c3c(=O)[nH]cnc23)c(C#N)c1F | agar diffusion | ATCC 10231 | 1000 µg/mL | 0 mm
COc1cccc(CN(CC(O)C[N+](C)(C)C)[C@@H]2[C@@H](O)[C@H](O[C@@H]3O[C@H](COCC(=O)O)[C@@H](O[C@@H]4C[C@H](COCC(=O)O)[C@@H](C)[C@H](O)[C@H]4N(Cc4cccc(OC)c4)CC(O)C[N+](C)(C)C)[C@H](O)[C@H]3N(Cc3cccc(OC)c3)CC(O)C[N+](C)(C)C)[C@@H](COCC(=O)O)O[C@H]2C)c1 | agar diffusion | RCMB 05031 | 1 mg/mL | 12.3 mm
CC1(C)CC(=O)c2cc(C3CC(c4ccc(Br)cc4)=NO3)[nH]c2C1 | - | ATCC 2091 | 1000 µg/mL | 24 mm
N#Cc1cc(C#N)c2[nH]c(=O)c3c(-c4ccc(Cl)cc4)csc3[n+]2c1N | agar diffusion / agar | - | 1000 µg/mL | 0 mm
O=C(NN=Cc1ccc(O)cc1)c1snnc1C(F)(F)F | agar diffusion / agar | MTCC 227 | 100 µg/mL | 0 mm

Blank or dashed fields: not listed here. Zone: diameter of growth inhibition.